The target in test [1] is VSV.
The target of test [2] is pVSV-loaded H-2 K^bm11 (mouse). As to the kind of experiment: flow cytometry on peptide-loaded T2 K^bm11 cells.
Test [3] concerns the target VSV. The source holds these as a separate data set.

Like-named read-outs stand apart in the source and are kept apart here.

In the case of mAb 30.5.7 (antibody), the Mean Channel Fluorescence in the test with VSV [1] stood at 334. “soluble divalent 2C TCR/Ig (from UniProt A2KF29)”: in test [2], the MCF worked out at 16. In the test with VSV [3], this substance showed a Mean Channel Fluorescence of 11.
